Each structure is given as a SMILES string.

The test has as its system P388 leukemia. In words: Evaluation against i.p. implanted P388 leukemia (Table 3). Type of test: in vivo, murine.

`CS(=O)(=O)OCCNP(=O)(O)NCCOS(C)(=O)=O` yielded a log cell kill of 4.8 log.

The record behind these values is US6197760A (priority 2000, dated 2001).
